Measurements: patent US9676822B2, “Oligopeptidic compounds and uses thereof” (APIM THERAPEUTICS AS, priority 2008, dated 2017)

system: HeLa cells; test: Cellular import and localisation of tag-labelled peptides by confocal microscopy; format: cell-based; conditions: fluorescent-tagged peptide incubated with HeLa cells

**Q.** With “MDRFLVKGAWRKRHIIKKRKKRRQRRRK-Ahx5-FAM)G (Ahx5-FAM label, G; MDr26-10)” as the substance, how does the Localization read?
**A.** nucleus

**Q.** For “MDRWLVKGAWRKRHIRKKRRQRRRK-FITC (FITC label; MDR24-43)”, which Localization is on record?
**A.** nucleus

**Q.** For “MDRWLVKWKKKRKIRKKRRQRRRK-FAM)G (FAM label, G; MDR26-32)”, which Localization is on record?
**A.** nucleus

**Q.** “MDRWLVKWRKRHIRKKRRQRRRK-FAM)G (FAM label, G; MDR26-42)” was tested. Which Localization did it give?
**A.** nucleus

**Q.** With “MDRWLVKWWRKRHIIKKRKKRRQRRRK-Ahx5-FAM)G (Ahx5-FAM label, G; MDR26-4)” as the substance, how does the Localization read?
**A.** nucleus
